Measurements from paper PMC3871185 (ACS medicinal chemistry letters, 2013).

test system: Burkholderia thailandensis

| SMILES | growth inhibition of B. thailandensis (in words) |
| --- | --- |
| Oc1ccc(Cl)c2cccnc12 [compound 4, reference compound] | inhibited cell growth |
| Oc1c(CN2CCCCC2)cc(Cl)c2cccnc12 [compound 5] | inhibition of cell growth |
| Oc1c(CN2CCOCC2)cc(Cl)c2cccnc12 [compound 6] | inhibited cell growth |
| CN1CCN(Cc2cc(Cl)c3cccnc3c2O)CC1 [compound 8] | inhibited cell growth |
| Cc1ccc(S(=O)(=O)Nc2ccc(Br)cc2C(=O)O)cc1 [compound 24] | nor the sulfonamide (24 and 25) derivatives demonstrated significant growth inhibition |
